Measured values from several laboratories, pooled; numbers as filed in NIAID ChemDB.

Common to all: whole-cell or culture tests; agent: HIV-1; cell line: CEM; read-out: fold resistance

Lines come from different laboratories, so protocols vary. Fold resistance: result on the changed form divided by that on wild type. Blank or dashed fields: not listed here.

smiles,strain,mutations,method,value
CC[C@H]1C(=O)Nc2ccc(F)cc2N1C(=O)OC(C)C,NNRTI-resistant,RT-Y181C,cytopathic effect,40.95
CCN1C(=O)N(Cc2cccc(Cl)c2)S(=O)(=O)c2cscc21,,RT-Y181C,syncytia,>50.9
Cc1ccnc2c1NC(=O)c1cccnc1N2C1CC1,,RT-L100I,cytopathic effect,5.45
c1ccc(C2OCc3nc4ccccc4n32)cc1,TIBO R82150-resistant (RT K103N),RT-K103N,cytopathic effect / MTT,>0.4
Cc1ccnc(N2C(=O)CSC2c2c(Cl)cccc2Cl)n1,,RT-E138K,cytopathic effect,1.56
Cc1occc1C(=S)Nc1ccc(Cl)c(/C=N/OC(C)(C)C)c1,IIIB,RT-M184I,p24,0.18
Fc1cccc(F)c1C1OCc2nc3ccccc3n21,Nevirapine-resistant (RT V106A),RT-V106A,cytopathic effect / MTT,>3.64
Fc1cccc(F)c1C1SCc2nc3ccccc3n21,,RT-E138K,cytopathic effect,1.25
C=C(C)OC(=O)N1c2cc(Cl)ccc2NC(=S)C1(C)C,TIBO-1(RT-L100I),RT-L100I,syncytia,3.79
COc1ccc2c(c1)N(C(=O)OC(C)C)[C@@H](CSC)C(=S)N2,IIIB,RT-M184V,p24,3
Cc1occc1C(=S)Nc1ccc(Cl)c(/C=N/OC(C)(C)C)c1,IIIB,RT-V179D,cytopathic effect,10.63
Cc1cn([C@@H]2O[C@H](CO[Si](C)(C)C(C)(C)C)C3(OS(=O)(=O)C=C3N)[C@H]2O[Si](C)(C)C(C)(C)C)c(=O)n(C)c1=O,NNRTI-resistant,RT-L100I,cytopathic effect,2.17
Nc1cc(OCCOCP(=O)(O)O)nc(N)n1,Clinical isolate C19,RT-M41L V118I L210W T215Y,syncytia,6.36
CCN1C(=O)N(Cc2ccccc2)S(=O)(=O)c2cscc21,IIIB,RT-L100I,syncytia,6.8
Cc1c(N)nc(N)nc1OCCOCP(=O)(O)O,Clinical isolate DE434.4,RT-K65R S68G T69I V75T Q151M,syncytia,16.1
Cc1cn([C@@H]2O[C@H](CO[Si](C)(C)C(C)(C)C)C3(OS(=O)(=O)C=C3N)[C@H]2O[Si](C)(C)C(C)(C)C)c(=O)n(C)c1=O,IIIB,RT-Y181C,p24,83.3
CCOCn1c(Cc2ccccc2)c(C(C)C)c(=O)[nH]c1=O,D-3 (RT-V108I M184I),RT-V108I M184I,cytopathic effect,5
Fc1cccc(F)c1C1SCc2nc3ccccc3n21,,RT-K103N,cytopathic effect,11.2
Cc1occc1C(=S)Nc1ccc(Cl)c(C(=O)OC2CCCC2)c1,IIIB,RT-L100I,syncytia,34
CC(C)Nc1cccnc1N1CCN(C(=O)c2cc3cc(NS(C)(=O)=O)ccc3[nH]2)CC1,A-0 (RT-L100I),RT-L100I,cytopathic effect,40
Cc1cn([C@@H]2O[C@H](CO[Si](C)(C)C(C)(C)C)C3(OS(=O)(=O)C=C3N)[C@H]2O[Si](C)(C)C(C)(C)C)c(=O)n(C)c1=O,IIIB,RT-M184V,syncytia,0.792
Cc1cn([C@@H]2O[C@H](CO[Si](C)(C)C(C)(C)C)C3(OS(=O)(=O)C=C3N)[C@H]2O[Si](C)(C)C(C)(C)C)c(=O)n(C)c1=O,IIIB-TSAO-m3T(10)(RT-Y181C),RT-Y181C,syncytia,1670
CC(C)=CCN1Cc2cc(Cl)cc3[nH]c(=S)n(c23)C[C@@H]1C,IIIB,RT-L100I,p24,85
Nc1ncnc2c1ncn2CCOCP(=O)(O)O,Clinical isolate C20,RT-M41L D67N V118I M184V L210W T215Y,syncytia,16.6
Nc1ncnc2c1ncn2CCOCP(=O)(O)O,IIIB-TIBO(0.5)(RT-L100I),RT-L100I,syncytia,1.07
O=c1[nH]cnc2c1ncn2[C@H]1CC[C@@H](CO)O1,IIIB,RT-L100I,syncytia,0.97
Cc1cn([C@@H]2O[C@H](CO[Si](C)(C)C(C)(C)C)C3(OS(=O)(=O)C=C3N)[C@H]2O[Si](C)(C)C(C)(C)C)c(=O)n(C)c1=O,TIBO-2(RT-K103N),RT-K103N,syncytia,5.75
Nc1ccn([C@H]2CC[C@@H](CO)O2)c(=O)n1,IIIB-Nevirapine(0.1)(RT-Y181C),RT-Y181C,syncytia,0.12
CCOCn1c(Cc2ccccc2)c(C(C)C)c(=O)[nH]c1=O,IIIB,RT-Y188L,syncytia,5000
Cc1cn([C@H]2C[C@H](N=[N+]=[N-])[C@@H](CO)O2)c(=O)[nH]c1=O,,RT-L100I,cytopathic effect,1.14
CN1C(=O)N(Cc2ccccc2)S(=O)(=O)c2cscc21,IIIB,RT-E138K,syncytia,>141
CC(C)=CCOc1cc(NC(=S)c2ccoc2C)ccc1Cl,IIIB,RT-E138K,syncytia,3.61
Cc1occc1C(=S)Nc1ccc(Cl)c(/C=N/OC(C)(C)C)c1,IIIB,RT-Y188L,syncytia,13
CCN1C(=O)N(Cc2ccccc2)S(=O)(=O)c2cscc21,,RT-E138K,syncytia,111
O=c1[nH]cnc2c1ncn2[C@H]1CC[C@@H](CO)O1,IIIB-Nevirapine(0.1)(RT-Y181C),RT-Y181C,syncytia,1.5
CC(C)Nc1cccnc1N1CCN(C(=O)c2cc3cc(NS(C)(=O)=O)ccc3[nH]2)CC1,Quin-0.02(RT-V106A),RT-V106A,syncytia,17.5
CN1C(=O)N(Cc2ccccc2)S(=O)(=O)c2cscc21,,RT-K103N,syncytia,>141
COc1cc(C)nc(N2C(=O)CSC2c2c(Cl)cccc2Cl)n1,,RT-L100I,cytopathic effect,9.3
N#CCN1C(=O)N(Cc2ccccc2)S(=O)(=O)c2cscc21,IIIB,RT-E138K,syncytia,6
C[C@H](Cn1cnc2c(N)ncnc21)OCP(=O)(O)O,Clinical isolate C20,RT-M41L D67N V118I M184V L210W T215Y,syncytia,29.7
N#CCN1C(=O)N(Cc2ccccc2)S(=O)(=O)c2cscc21,,RT-L100I,syncytia,6.5
CC(C)=CCN1Cc2cc(Cl)cc3[nH]c(=S)n(c23)C[C@@H]1C,IIIB,RT-E138K,cytopathic effect,18.75
CC(C)=CCOc1cc(NC(=S)c2ccoc2C)ccc1Cl,J-2 (RT-Y181C),RT-Y181C,cytopathic effect,1
Cc1cc(C)nc(N2C(=O)CSC2c2c(Cl)cccc2Cl)n1,,RT-E138K,cytopathic effect,1.56
O=C1N(Cc2ccccc2)c2cscc2S(=O)(=O)N1Cc1ccccc1,IIIB,RT-L100I,syncytia,≥5.56

Repeating the final 3 entries:

smiles,strain,mutations,method,value
CC(C)=CCOc1cc(NC(=S)c2ccoc2C)ccc1Cl,J-2 (RT-Y181C),RT-Y181C,cytopathic effect,1
Cc1cc(C)nc(N2C(=O)CSC2c2c(Cl)cccc2Cl)n1,,RT-E138K,cytopathic effect,1.56
O=C1N(Cc2ccccc2)c2cscc2S(=O)(=O)N1Cc1ccccc1,IIIB,RT-L100I,syncytia,≥5.56